Measured values from several laboratories, pooled; numbers as filed in NIAID ChemDB.

Shared fields: enzyme or target tests; organism: HIV-1; target: Integrase; read-out: IC50

Lines come from different laboratories, so protocols vary. ICn is the concentration giving n% inhibition. Blank or dashed fields: not listed here. Two numbers with a dash give a range or band.

{"SMILES": "O=C(/C=C(\\O)c1ccccc1Cl)C(=O)N1CCN(C(=O)C(=O)/C=C(\\O)c2ccccc2Cl)CC1", "read by": "strand transfer", "value": ">100 µM"}
{"SMILES": "O=C(/C=C/c1ccc(O)c(O)c1)OCCc1ccccc1", "read by": "3′ processing", "value": "5 µM"}
{"SMILES": "COc1c(O)c2c3c(c(O)cc(O)c3c1O)C(C)=CC2=O", "read by": "strand transfer", "value": "10 µM"}
{"SMILES": "O=C(/C=C/c1ccc(O)c2c1[C@H](C(=O)O[C@H](Cc1ccc(O)c(O)c1)C(=O)O)[C@@H](c1ccc(O)c(O)c1)O2)O[C@H](Cc1ccc(O)c(O)c1)C(=O)O", "read by": "strand transfer", "value": "0.37 µM"}
{"SMILES": "O=C(O)C(=O)/C=C(\\O)c1cn(-c2ccccc2)c(=O)n(-c2ccc(F)cc2)c1=O", "read by": "3′ processing", "value": "5.7 µM"}
{"SMILES": "CN1C(=O)C(c2cc(Cl)c(O)c(Cl)c2)NC(=O)[C@@H]2NC(=O)C(c3cc(Cl)c(O)c(Cl)c3)NC(=O)[C@H](NC(=O)C(=O)c3cc(Cl)c(O)c(Cl)c3)Cc3c[nH]c4c(cccc34)-c3cc2cc(c3O)Oc2ccc(cc2)CC1C(=O)NC(C(=O)O)c1ccc(O)cc1", "value": "0.4 µM"}
{"SMILES": "CC(=O)N(C)c1c2c(c(O)c(=O)n1C)C(=O)N(Cc1ccc(F)cc1)CC2", "read by": "strand transfer", "value": "<1 µM"}
{"SMILES": "O=C(O)C(=O)/C=C(\\O)c1cn(-c2ccc(C(F)(F)F)cc2)c(=O)n(-c2ccc(C(F)(F)F)cc2)c1=O", "read by": "3′ processing", "value": ">33 µM"}
{"SMILES": "O=C(NCCCNC(=O)c1cc2cc3c(cc2[nH]1)OCO3)c1cc2cc3c(cc2[nH]1)OCO3", "read by": "3′ processing", "value": ">100 µM"}
{"SMILES": "CCOC(=O)c1cn2c(c1O)C(=O)N(Cc1ccc(Cl)cc1)CC2", "read by": "strand transfer", "value": "<1.5 µM"}
{"SMILES": "CNC(=O)CNC(=O)c1cn2ccn(Cc3cccc(Cl)c3)c(=O)c2c(O)c1=O", "read by": "ELISA", "value": "0.01–0.1 µM"}
{"SMILES": "CNC(=O)c1[nH]c(=O)c(O)c2c1CCN(Cc1ccc(F)cc1)C2=O", "read by": "strand transfer", "value": "<1 µM"}
{"SMILES": "Nc1ncnc2c1ncn2[C@@H]1C[C@H](CO)[C@H](O)[C@H]1O", "read by": "3′ processing", "value": "46–114 µM"}
{"SMILES": "N#Cc1cc2cc([N+](=O)[O-])c([N+](=O)[O-])cc2n(O)c1=N", "read by": "3′ processing / gel", "value": "4 µM"}
{"SMILES": "Cn1ccn2c(=O)c(O)c(-c3ncc(Cc4ccc(Cl)cc4)s3)nc12", "mutations": "G140S/Q148H", "read by": "strand transfer", "value": "0.1–1 µM"}
{"SMILES": "O=P(O)(O)C(O)(CCc1ccccc1)P(=O)(O)O", "read by": "3′ processing / gel", "value": ">100 µM"}
{"SMILES": "Oc1c(C(=S)NCc2ccc(F)cc2)occc1=S", "read by": "strand transfer", "value": "7.3 µM"}
{"SMILES": "CC(=O)Nc1ccc(SSc2ccc(NC(C)=O)cc2C(N)=O)c(C(N)=O)c1", "value": ">100 µM"}
{"SMILES": "O=C(NCc1ccc(F)cc1)C1C(=O)N(O)C(=O)c2ccccc21", "read by": "strand transfer", "value": "0.099 µM"}
{"SMILES": "O=C1c2c(O)c(=O)c(-c3ccccn3)cn2CCN1Cc1ccc(F)cc1", "read by": "ELISA", "value": "0.01–0.1 µM"}
{"SMILES": "CCOC(=O)/C(O)=C(\\C#N)c1cn(Cc2ccccc2)c2ccccc12", "read by": "strand transfer", "value": ">100 µM"}
{"SMILES": "O=C(O)C(=O)/C=C(\\O)c1cn(-c2ccc(F)cc2)c(=O)n(-c2ccc(F)cc2)c1=O", "read by": "3′ processing", "value": "3.9 µM"}
{"SMILES": "Cn1ccn2c(=O)c(O)c(-c3ncc(Cc4ccc(F)c(Cl)c4)s3)nc12", "mutations": "G140S/Q148H", "read by": "strand transfer", "value": "0.1–1 µM"}
{"SMILES": "O=C(NCCCNC(=O)c1cc2cc(O)c(O)cc2[nH]1)c1cc2cc(O)c(O)cc2[nH]1", "read by": "3′ processing", "value": "4.2 µM"}
{"SMILES": "Cn1ccn2c(=O)c(O)c(-c3ncc(Cc4ccc(Cl)c(Cl)c4)s3)nc12", "mutations": "E92Q/N155H", "read by": "strand transfer", "value": "0.1–1 µM"}
{"SMILES": "NC(Cc1ccc(Cl)c(Cl)c1)(P(=O)(O)O)P(=O)(O)O", "read by": "3′ processing / gel", "value": "6 µM"}
{"SMILES": "CCN(CC)C(=O)c1c2c(c(O)c(=O)n1C)C(=O)N(Cc1ccc(F)cc1)CC2", "read by": "strand transfer", "value": "<1 µM"}
{"SMILES": "O=C1C(=O)c2cc(-c3cc(O)c(O)c(O)c3)ccc2C(Oc2c(O)cc(-c3ccc4cc(O)c(O)c(O)c4c3)cc2O)=C1O", "read by": "3′ processing", "value": "0.45 µM"}
{"SMILES": "COCc1c(-c2ccccn2)c(=O)c(O)c2n1CCN(Cc1ccc(F)cc1)C2=O", "read by": "ELISA", "value": "0.01–0.1 µM"}
{"SMILES": "Cn1ccn2c(=O)c(O)c(C(O)NCc3ccc(Cl)c(Cl)c3)nc12", "mutations": "Wild type", "read by": "strand transfer", "value": "0.1–1 µM"}
{"SMILES": "O=P(O)(O)C(O)(CCCCc1ccccc1)P(=O)(O)O", "read by": "3′ processing / gel", "value": ">100 µM"}
{"SMILES": "Cc1cc2nc3c4ccccc4n(CCN(C)C)c3nc2cc1C", "value": "2.4 µM"}
{"SMILES": "CC(C)(C)c1nc(C(=O)NCc2ccc(F)cc2)c(O)c(=O)n1CCCNS(=O)(=O)c1ccccc1", "read by": "3′ processing", "value": ">20 µM"}
{"SMILES": "O=C(NCCO)c1c(O)c2ncc(Cc3ccc(F)cc3)cc2n(-c2ccc(F)cc2)c1=O", "read by": "strand transfer", "value": "0.006 µM"}
{"SMILES": "O=c1c(-c2ncn[nH]2)cn2ccn(Cc3cccc(Cl)c3)c(=O)c2c1O", "read by": "ELISA", "value": "0.01–0.1 µM"}
{"SMILES": "O=C(O)c1[nH]c(=O)c(O)c2c1CCN(Cc1ccc(F)cc1)C2=O", "read by": "strand transfer", "value": "<1 µM"}
{"SMILES": "CCOC(=O)c1c(C)nc(-c2coc3cc(OCc4ccc(F)cc4)ccc3c2=O)n1O", "read by": "3′ processing / radiometric", "value": ">1000 µM"}
{"SMILES": "Nc1ccn([C@@H]2CO[C@H](COP(=O)(O)O[C@H]3C[C@H](n4cnc5c(N)ncnc54)O[C@@H]3COP(=O)(O)O)[C@H]2O)c(=O)n1", "read by": "3′ processing", "value": ">1000 µM"}
{"SMILES": "O=[N+]([O-])c1ccc(CS(=O)(=O)c2nc3ccccc3s2)cc1", "read by": "strand transfer", "value": ">1000 µM"}
{"SMILES": "NS(=O)(=O)c1ccc(NC(=O)c2ccc(SSc3ccc(C(=O)Nc4ccc(S(N)(=O)=O)cc4)cc3)cc2)cc1", "value": ">100 µM"}
{"SMILES": "O=C1c2c(O)c(=O)ccn2CCN1Cc1ccc(Cl)c(F)c1", "read by": "ELISA", "value": "0.01–0.1 µM"}
{"SMILES": "O=C(O)C(=O)/C=C(\\O)c1cn(-c2ccccc2)c(=O)[nH]c1=O", "read by": "3′ processing", "value": "10 µM"}
{"SMILES": "O=P(O)(O)C(CNCCc1ccccc1)P(=O)(O)O", "read by": "3′ processing / gel", "value": ">100 µM"}
{"SMILES": "O=C(/C=C(\\O)C(=O)O)CC(=O)c1ccccc1", "read by": "strand transfer", "value": "34 µM"}
{"SMILES": "COC(=O)C(=O)/C=C(\\O)c1cccc(N(Cc2ccccc2)Cc2ccccc2)c1", "read by": "3′ processing", "value": ">100 µM"}
{"SMILES": "Cc1c(NC(=O)c2ccco2)c(=O)n(-c2ccccc2)n1C", "read by": "strand transfer", "value": ">1000 µM"}
{"SMILES": "CCOC(=O)c1c(C)nc(-c2coc3cc(OCc4cccc(F)c4)ccc3c2=O)n1O", "read by": "3′ processing / radiometric", "value": ">1000 µM"}
{"SMILES": "CC(=O)c1cc2cc(Sc3ccccc3)c([N+](=O)[O-])cc2nc1C", "read by": "3′ processing / gel", "value": ">100 µM"}
{"SMILES": "O=C(O)c1cn2c(c1O)C(=O)N(Cc1ccc(F)cc1)CC2", "read by": "strand transfer", "value": "<0.7 µM"}
{"SMILES": "COC(=O)c1[nH]c(=O)c(O)c2c1CCN(Cc1ccc(F)cc1)C2=O", "read by": "strand transfer", "value": "<1 µM"}
{"SMILES": "Cn1ccn2c(=O)c(O)c(-c3ncc(Cc4ccc(F)cc4)s3)nc12", "mutations": "E92Q/N155H", "read by": "strand transfer", "value": "0.1–1 µM"}
{"SMILES": "O=C(NCc1ccc(F)cc1)c1nc[nH]c(=O)c1O", "read by": "strand transfer", "value": "1 µM"}
{"SMILES": "O=C1c2c(O)c(=O)ccn2CCN1Cc1ccc(F)c(Cl)c1", "read by": "ELISA", "value": "0.01–0.1 µM"}
{"SMILES": "CN(C)CCCNC(=O)c1ccc2nc(-c3ccc4nc(-c5ccc(OCCOCCOCCOc6ccc(-c7nc8ccc(-c9nc%10ccc(C(=O)NCCCN(C)C)cc%10[nH]9)cc8[nH]7)cc6)cc5)[nH]c4c3)[nH]c2c1", "read by": "strand transfer", "value": "23 µM"}
{"SMILES": "O=C(c1cc2cc(O)c(O)cc2[nH]1)N1CCN(C(=O)c2cc3cc(O)c(O)cc3[nH]2)CC1", "read by": "3′ processing", "value": "3.6 µM"}
{"SMILES": "COc1c(Cl)cccc1Cn1ccn2ccc(=O)c(O)c2c1=O", "read by": "ELISA", "value": "0.01–0.1 µM"}
{"SMILES": "O=C(NCCc1ccccc1)c1cc2cc3c(cc2[nH]1)OCO3", "read by": "3′ processing", "value": ">100 µM"}
{"SMILES": "O=C(O)c1ccccc1-c1ccc(CN2C(=O)C(=O)c3ccccc32)cc1", "read by": "3′ processing", "value": "900 µM"}
{"SMILES": "CC1(C)CC(=O)c2c(nc(-c3coc4cc(OCc5ccc(F)cc5)ccc4c3=O)n2O)C1", "read by": "3′ processing / radiometric", "value": "580 µM"}
{"SMILES": "O=C(O)c1cc(-c2cccn2Cc2ccc(F)cc2)on1", "read by": "strand transfer", "value": "475 µM"}
{"SMILES": "O=C(NCCCCNC(=O)c1cc2cc3c(cc2[nH]1)OCO3)c1cc2cc3c(cc2[nH]1)OCO3", "read by": "3′ processing", "value": ">100 µM"}
{"SMILES": "CCOC(=O)c1cn2c(c1O)C(=O)N(Cc1cccc(F)c1)CC2", "read by": "strand transfer", "value": "<1.5 µM"}
{"SMILES": "O=C(NCc1ccc(F)cc1)c1c(O)c2nc(Cc3ccc(F)cc3)sc2n(-c2ccccc2)c1=O", "read by": "strand transfer", "value": ">4 µM"}
{"SMILES": "CCN(CC)C(=O)c1cc(=O)c(O)c2n1CCN(Cc1ccc(Cl)c(Cl)c1)C2=O", "read by": "ELISA", "value": "0.01–0.1 µM"}
{"SMILES": "CCOC(=O)/C(O)=C(\\C#N)c1cn(CC)c2ccccc12", "read by": "strand transfer", "value": "225 µM"}

Again, the opening 6 rows:

SMILES	mutations	read by	value
O=C(/C=C(\O)c1ccccc1Cl)C(=O)N1CCN(C(=O)C(=O)/C=C(\O)c2ccccc2Cl)CC1		strand transfer	>100 µM
O=C(/C=C/c1ccc(O)c(O)c1)OCCc1ccccc1		3′ processing	5 µM
COc1c(O)c2c3c(c(O)cc(O)c3c1O)C(C)=CC2=O		strand transfer	10 µM
O=C(/C=C/c1ccc(O)c2c1[C@H](C(=O)O[C@H](Cc1ccc(O)c(O)c1)C(=O)O)[C@@H](c1ccc(O)c(O)c1)O2)O[C@H](Cc1ccc(O)c(O)c1)C(=O)O		strand transfer	0.37 µM
O=C(O)C(=O)/C=C(\O)c1cn(-c2ccccc2)c(=O)n(-c2ccc(F)cc2)c1=O		3′ processing	5.7 µM
CN1C(=O)C(c2cc(Cl)c(O)c(Cl)c2)NC(=O)[C@@H]2NC(=O)C(c3cc(Cl)c(O)c(Cl)c3)NC(=O)[C@H](NC(=O)C(=O)c3cc(Cl)c(O)c(Cl)c3)Cc3c[nH]c4c(cccc34)-c3cc2cc(c3O)Oc2ccc(cc2)CC1C(=O)NC(C(=O)O)c1ccc(O)cc1			0.4 µM